Laboratory results from the supplement of paper PMC9931576.
Human monoclonal antibodies against the spike receptor-binding domain (heavy:light variable regions). IC50 against pseudoviruses bearing the spike of naturally observed variants; lower = stronger; >10 µg/ml means not reached at the top dose. No active / inactive call. The stated detection limit is 0.0005 µg/ml; values near or below 0.001 µg/ml lie at the floor of the assay.

B1: XGv-19 (protein)
chain 1: EVQLVESGGGLVQPGGSLRLSCGASGFSLSNYDIHWVRQATGEGLEWVSCVGTYGDTYYSDSVKGRFTISRENARNSLYLQMNSLRLGDTAVYFCTRGSVDPTTNWYFDLWGRGTLVTVSS
chain 2: DIQMTQSPSSLSASVGDRVTITCRASQGIRNFLAWYQQKPGKAPKLLLSAASRLESGVPSRFSGSGSGTDYTLTISSLQPEDFATYYCQQYYSSPPITFAQGTRLEIK
B2: XGv-191 (protein)
chain 1: QVQLVQSGAEVKKPGSSVKVSCKTSGGTFISQVINWVRQAPGQGLEWMGRIIPVVGTPTYAQKFQGRVTITADKSTNTAYMELRSLRSGDTAVYYCASVSESTDTSGYSLGYWGQGTQVTVSS
chain 2: DIVMTQSPLSLPVTPGEPASISCRSSQSLLHSNGHNYLDWYLQKPGQSPQLVIYMGSNRASGVPDRFSGSGSGTDFTLKISRVEAEDVGVYYCMQALQTPLTFGGGTKVEIK
B3: XGv-199 (protein)
chain 1: QVQLQESGPGLVRPSQTLSLSCTVSGSSISGGGFSWSWVRQHPGKGLEWIAYISYSGSTYYNPSLKSRLTISRDTSKNQFFLRVNSVYAADTAVYYCARIPVNGWNNWFDPWGQGTLVTVSS
chain 2: SYVLTQPPSVSVAPGKTASITCGGNNIGSKSVHWYQRKPGQAPVLVIYYDGDRPSGIPERFSGSNSGNTATLTISRVEAGDEADYYCQVWDSTTDHPVFGGGTKLTVL
B4: XGv-20 (protein)
chain 1: QVQLVESGGGVVQPGRSLRLSCPASGFTFSIYGIHWVRQAPGKGLEWVAAISYDGSNEYYADSVKGRFTISRDNSKNTLFLQMNRLKAEDTAMYFCAKALFTGWFGESPLDYWGRGTLVTVSS
chain 2: EIVMTQSPATLSLSPGERATLSCRASQSISSNLAWYQQKPGQAPRLLIYGASTRATGIPARFSGSGSGTEFTLTISSLQSEDFAIYYCQHYNNWPPYTFGQGTKLEIK
B5: XGv-214 (protein)
chain 1: QVQLVQSGAEVKKPGASVRVSCKASGYILTRFGIGWVRQAPGQGLEWMGWISANNGTTTYTQKLQGRVTMTTDIATSTAYMELRSLRSDDTAVYYCARGTDWGIGWFDPWGQGTLVTVSS
chain 2: SYVLTQPPSVSVAPEKPARITCGGNNIGSKSVHWYQQKPGQAPVLVIYYDGDRPSGIPERFSGSNSGNTATLTISRVEAGDEADYYCQVWDSNSDSVVFGGGTKLTVL
B6: XGv-235 (protein)
chain 1: EVQLVQSGAEVKKPGESLKISCKASGYSFISHWIAWVRQKPGKGLEWMGIIYPGDSDTRYSPSFQGQVTISVDKSIGTAYLQWRSLKSSDTAIYYCARGPNLYNWFDTWGQGTLVTVSS
chain 2: QSVLTQPPSASGTPGQRVTISCSGSSSNIGSNTVNWYQQLPGTAPKLLIYNNGQRPSGVPDRFSGSKSGTSASLAISGLQSEDEADFYCAAWDDSLNALVFGGGTRVTV
B7: XGv-251 (protein)
chain 1: QVQLVQSGAEVKKPGSSVKVSCKASGGTFSSFTVNWVRQAPGQGLEWMGGIIPILNIPNYAQKFQGRVTISADKSTSTAYMELSSLRSEDTAVFYCAREGPYYESSGLQSNWFDSWGQGTLVTVSS
chain 2: QSVLTQPPSVSGAPGQRVTISCTGSSSNIGAGYDVHWYQQLPRTAPKLLIYGNTNRPSGVPDRFSGSKSGTSVFLAITGLQAEDEADYYCQSYDSSLSGSVFGGGTKLTV
B8: XGv-263 (protein)
chain 1: QVQLVQSGTELKKPGASVKVSCKAFGYTFSSYGISWVRQAPGQGLEWMGWISGNNGNTNYAQKFQGRVTMTTDTSTSTAYMDLRSLRSDDTAVYYCARGVYCSAANCVRASTRISHYYYMDVWGKGTTVTVSS
chain 2: NFMLTQPHSVSESPGKTVTISCTRSSGSIASHYVQWYQQRPGSYPTTVIYEDDQRPSGVPDRFSGSIDSSSNSASLTISGLKTEDEADYYCQSYDSSFSWVFGGGTKLTV
B9: XGv-279 (protein)
chain 1: QVQLQESGPGLVKPSETLSLTCTVSGGSISSYYWSWIRQPPGKGLEWIGYFYSSGNTNYKPSLKSRVTISVDTSKNQLSLRLSSVTAADTAVYYCARYSKEDSQGYVSNYFFDYWGQGTLVTVSS
chain 2: QSALTQPASVSGSPGQSITISCTGTSSDVGSFNLVSWYQQHPGTAPKLMIYDVSKRPSGVSNRFSGSKSGNTASLTISGLQAEDEAEYYCYSYAGSSTFVFGTGTQVTVL
B10: XGv-282 (protein)
chain 1: QVQLVQSGAEVKKPGSSVKVSCKASGDTFSSYTFSWVRQAPGQGLEWMGRSIPIVGKAIYAQEFQGRVTISADRSTTTVYMELSSLRSDDTAVYYCARDQSGFDFFYYDHWGQGTLVAVSS
chain 2: QSVLTQPPSASGTPGQRVTISCSGSGSNIGSNTINWYQQLPGTAPKVLIYRNNERPSGVPDRFSGSKSGTSASLTISGLQSEDEAYYHCAAWDDSLNGPVFGGGTKLTVL
B11: XGv-289 (protein)
chain 1: QVQLVQSGAEVKKPGASLKVSCRASGYTFTSHFIHWVRQAPGQGLEWMGIINPSGGASYAQNFRDRVTMTTDPSTSTVYMELGSLRSEDTAVYYCARAEGSSWLGWFDPWGQGTLVTVSS
chain 2: QSVLTQPPSASGTPGQRVTIPCSGSSSNIGNNYVYWYQQLPGTAPKLLVYGNNQRPSGVPDRFSVSKSGTSASLAISGLRSEDEADYYCAAWDDGLSGSGWVFGGGTKLTVL
B12: XGv-291 (protein)
chain 1: QVQLVQSGAEVKKPGASVEISCKASGYSFTKYYVHWVRQAPGQGLEWMGIVNPNGGASYAQKFQGRVTMTSDTSTTTFYMEVSGLRSDDTAVYYCARAEGSSWLGWFDPWGQGTLVTVSS
chain 2: QSVLTQPPSASGTPGQRVTISCSGSTSNIGSKDVYWYQQLPGTAPKLLIYRNNQRPSGAPDRFSASKSGTSASLAISGLRSEDEADYYCAVWDDGLSASGWLFGGGTKLTVL
B13: XGv-292 (protein)
chain 1: QVQLVQSGAEVKKPGASVKVSCKASGYTFTNYYMHWVRQAPGQGLEWMGIINPSGISASYAQRFQGRVTMTRDTSTSTFYMEMRSLRSEDTAVYYCARAEGSSWLGWFDPWGQGTLVTVSS
chain 2: QSVLTQPPSASGTPGQRVTISCSGSSSNIGSHYVYWYQQLPGEAPKLLIYRNNQRPSGVPDRFSGSKSGTSASLAISGLRSEDEADFYCAVWDDGLSGSGWVFGGGT

Columns and labels:
Experiment in all cases: pseudovirus neutralization IC50; higher = weaker neutralization
[1] = target: SARS-CoV-2 Omicron BA.1 spike pseudovirus
Method: (§1)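 Single-round VSV luciferase pseudovirus mixed with antibody dilutions for 1 h and put on Huh-7 cells for about a day; IC50 from the dose curve.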

[2] = target: SARS-CoV-2 Omicron BA.2 spike pseudovirus
Method: as §1

[3] = target: SARS-CoV-2 Omicron BA.2.75 spike pseudovirus
Method: as §1

[4] = target: SARS-CoV-2 Omicron BA.5 spike pseudovirus
Method: as §1

[5] = target: SARS-CoV-2 Omicron BQ.1.1 spike pseudovirus
Method: as §1

[6] = target: SARS-CoV-2 Omicron XBB spike pseudovirus
Method: as §1

[7] = target: SARS-CoV-2 early D614G spike pseudovirus
Method: as §1

Row | Binder | pseudovirus neutralization IC50 [1] | pseudovirus neutralization IC50 [2] | pseudovirus neutralization IC50 [3] | pseudovirus neutralization IC50 [4] | pseudovirus neutralization IC50 [5] | pseudovirus neutralization IC50 [6] | pseudovirus neutralization IC50 [7]
1 | B1 | > 10 mg/L | > 10 mg/L | > 10 mg/L | > 10 mg/L | > 10 mg/L | > 10 mg/L | 6.23 mg/L
2 | B2 | 9.13 mg/L | 7.29 mg/L | > 10 mg/L | > 10 mg/L | > 10 mg/L | > 10 mg/L | 0.017 mg/L
3 | B3 | 0.229 mg/L | 0.449 mg/L | 0.664 mg/L | 0.532 mg/L | > 10 mg/L | > 10 mg/L | 0.182 mg/L
4 | B4 | 2.74 mg/L | 1.93 mg/L | 5.09 mg/L | 1.93 mg/L | > 10 mg/L | > 10 mg/L | 2.76 mg/L
5 | B5 | 2.69 mg/L | 2.88 mg/L | 2.15 mg/L | > 10 mg/L | > 10 mg/L | > 10 mg/L | 0.134 mg/L
6 | B6 | 0.192 mg/L | 0.0654 mg/L | 0.293 mg/L | 0.257 mg/L |  |  | 0.704 mg/L
7 | B7 | 0.407 mg/L | 0.35 mg/L | 0.24 mg/L | > 10 mg/L | > 10 mg/L | > 10 mg/L | 0.302 mg/L
8 | B8 | > 10 mg/L | 0.0124 mg/L | 2.61 mg/L | 2.33 mg/L | > 10 mg/L | > 10 mg/L | 0.00242 mg/L
9 | B9 | 6.76 mg/L | 4.99 mg/L | 4.46 mg/L | > 10 mg/L | > 10 mg/L | > 10 mg/L | 0.00548 mg/L
10 | B10 | 3.33 mg/L | 0.000965 mg/L | 0.0276 mg/L | 0.000938 mg/L | 0.0374 mg/L | > 10 mg/L | 0.00228 mg/L
11 | B11 | 0.0162 mg/L | 0.0145 mg/L | 0.0168 mg/L | 0.0177 mg/L | 0.991 mg/L | > 10 mg/L | 0.00115 mg/L
12 | B12 | 0.0519 mg/L | 0.0118 mg/L | 0.022 mg/L | 0.00859 mg/L | 0.229 mg/L | > 10 mg/L | 0.00243 mg/L
13 | B13 | 1.17 mg/L | 0.823 mg/L | 1.36 mg/L | 0.506 mg/L | > 10 mg/L | > 10 mg/L | 0.0237 mg/L
